Pooled drug test results. Numbers come from NIAID ChemDB, via PubChem.

Shared fields: growth or infection tests; organism: Candida albicans; endpoint: MIC

Lines come from different laboratories, so protocols vary.

| smiles | strain | value |
|---|---|---|
| Cc1c(Sc2ccccc2)[n+](=O)c2cc(C(F)(F)F)ccc2n1[O-] | Clinical isolate 22 | 7.8 µg/mL |
| Cc1c(O)cccc1C(=O)N[C@@H](CSc1ccccc1)[C@H](O)CN1C[C@H]2CCCC[C@H]2C[C@H]1C(=O)NC(C)(C)C | I173A | 64 µg/mL |
| C[C@@H](n1cnc2cc(Sc3ccccc3)ccc2c1=O)[C@](O)(Cn1cncn1)c1ccc(F)cc1F | 76 strains | 40 µg/mL |
| CC(C)(C)c1ccc(COC(Cn2ccnc2)c2ccc(Cl)cc2)cc1 | CA2 | 128 µg/mL |
| CCCCCOc1ccc(-c2ccc(-c3ccc(C(=O)N[C@H]4CCCNC(=O)C5C[C@H](N=C(N)N)CN5C(=O)C(C(C)O)NC(=O)C(CCc5ccc(O)cc5)NC(=O)C5C[C@@H](O)CN5C(=O)C(C(C)O)NC4=O)cc3)cc2)cc1 | ATCC 62376 | 0.39 µg/mL |
| Cc1ccc2ncn([C@H](C)[C@](O)(Cn3cncn3)c3ccc(F)cc3F)c(=O)c2c1 | 76 strains | 10 µg/mL |
| CCCCCOc1ccc(-c2ccc(-c3ccc(C(=O)N[C@H]4CCCNC(=O)[C@@H]5C[C@H](N)CN5C(=O)[C@H]([C@@H](C)O)NC(=O)[C@H](Cc5ccc(O)cc5)NC(=O)[C@@H]5C[C@@H](O)CN5C(=O)[C@H]([C@@H](C)O)NC4=O)cc3)cc2)cc1 | ATCC CCH442 | 0.2 µg/mL |
| Cc1c(Sc2ccccc2)[n+](=O)c2cc(Cl)ccc2n1[O-] | Clinical isolate 3 | 62.5 µg/mL |
| CCCCCCCCOc1ccc(N2CCN(c3ccc(C(=O)N[C@H]4CCCNC(=O)C5C[C@H](N)CN5C(=O)C(C(C)O)NC(=O)C(Cc5ccc(CO)cc5)NC(=O)C5CCCN5C(=O)C(C(C)O)NC4=O)cc3)CC2)cc1 | ATCC CCH442 | 1.56 µg/mL |
| CC(=C/C=C/C(=O)O)/C=C/C=C(\C)C(O)C(C)C(=O)O[C@H]1C[C@H](C)C=C2C=C[C@@]3(C)O[C@@H](O)CC(=O)[C@]3(C)[C@H]21 | 579A | 3.12 µg/mL |
| CCCCCOc1ccc(-c2ccc(-c3ccc(C(=O)N[C@H]4CCCNC(=O)[C@@H]5C[C@H](N)CN5C(=O)[C@H](CCCN)NC(=O)C(CCc5ccc(O)cc5)NC(=O)[C@@H]5C[C@@H](O)CN5C(=O)[C@H]([C@@H](C)O)NC4=O)cc3)cc2)cc1 | ATCC 62376 | 0.2 µg/mL |
| Cc1c(Cl)[n+](=O)c2cc(Cl)ccc2n1[O-] | Clinical isolate 21 | 7.8 µg/mL |
| C[C@@H](n1cnc2cc(F)ccc2c1=O)[C@](O)(Cn1cncn1)c1ccc(F)cc1F | 60 strains | 0.07 µg/mL |
| CN(CCCC#CC(C)(C)C)c1cccc2c1CCC(=O)N2 | Clinical isolate 19 | 31.25 µg/mL |
| C[C@@H](n1cnc2cc(Cl)ccc2c1=O)[C@](O)(Cn1cncn1)c1ccc(Cl)cc1Cl | 60 strains | ≤0.03 µg/mL |
| c1ccc(C(Cn2ccnc2)OCc2cccc3ccccc23)cc1 | CA6 | >128 µg/mL |
| CCCCCOc1ccc(-c2ccc(-c3ccc(C(=O)N[C@H]4CCCNC(=O)C5C[C@H](N=[N+]=[N-])N5C(=O)C(C(C)O)NC(=O)C(CCc5ccc(O)cc5)NC(=O)C5C[C@@H](O)CN5C(=O)C(C(C)O)NC4=O)cc3)cc2)cc1 | ATCC 62376 | 3.12 µg/mL |
| Cc1ccc(C(Cn2ccnc2)OCc2ccc(C(C)(C)C)cc2)cc1 | 3M | >128 µg/mL |
| CCCCCOc1ccc(-c2ccc(-c3ccc(C(=O)N[C@H]4CCCNC(=O)C5C[C@H](NC(=O)C[N+](C)(C)C)CN5C(=O)C(C(C)O)NC(=O)C(CCc5ccc(O)cc5)NC(=O)C5C[C@@H](O)CN5C(=O)C(C(C)O)NC4=O)cc3)cc2)cc1 | ATCC 10231 | 1.56 µg/mL |
| Clc1ccc(C(Cn2ccnc2)OC/C=C/c2ccccc2)c(Cl)c1 | CDCB385 | 128 µg/mL |
| NC(=NC1CCCC1)c1ccc(-c2ccc(-c3ccc(C(N)=NC4CCCC4)cc3)o2)cc1 | Isolate CA2601 fluconazole-resistant | 25 µg/mL |
| CCCCCOc1ccc(-c2ccc(-c3ccc(C(=O)N[C@H]4CCCNC(=O)[C@H]5CCN5C(=O)C(C(C)O)NC(=O)C(CCc5ccc(O)cc5)NC(=O)C5C[C@@H](O)CN5C(=O)C(C(C)O)NC4=O)cc3)cc2)cc1 | ATCC CCH442 | >100 µg/mL |
| Clc1ccc(C(Cn2ccnc2)OCc2ccc(-c3ccccc3)cc2)c(Cl)c1 | PR1 | >128 µg/mL |
| CCCCCOc1ccc(-c2ccc(-c3ccc(C(=O)N[C@H]4CCCNC(=O)C5[C@H](N)CN5C(=O)C(C(C)O)NC(=O)C(CCc5ccc(O)cc5)NC(=O)C5C[C@@H](O)CN5C(=O)C(C(C)O)NC4=O)cc3)cc2)cc1 | ATCC CCH442 | 0.39 µg/mL |
| C[C@H](n1cnc2cc(C(F)(F)F)ccc2c1=O)[C@](O)(Cn1cncn1)c1ccc(F)cc1F | 76 strains | 5 µg/mL |

Repeating the final 2 entries:

smiles | strain | value
CCCCCOc1ccc(-c2ccc(-c3ccc(C(=O)N[C@H]4CCCNC(=O)C5[C@H](N)CN5C(=O)C(C(C)O)NC(=O)C(CCc5ccc(O)cc5)NC(=O)C5C[C@@H](O)CN5C(=O)C(C(C)O)NC4=O)cc3)cc2)cc1 | ATCC CCH442 | 0.39 µg/mL
C[C@H](n1cnc2cc(C(F)(F)F)ccc2c1=O)[C@](O)(Cn1cncn1)c1ccc(F)cc1F | 76 strains | 5 µg/mL